Measurements: patent US20250084091A1, “INHIBITORS OF SARS-COV-2” (The Texas A&M University System, priority 2021, published 2025)
pEC50, pIC50: −log10 of the molar value. Like-named read-outs stand apart in the source and are kept apart here.

How the values were obtained:
[1] = target: SARS-CoV-2 main protease (Mpro) (Severe acute respiratory syndrome coronavirus 2, UniProt P0DTD1); details: read-out: Enzyme IC50
[2] = tested on: SARS-CoV-2 (strain USA-WA1/2020); details: read-out: CoV-2 HeLa EC50
[3] = tested on: HeLa-ACE2 cells; experiment: Infected host cell toxicity (total cells) in viral replication assay; details: read-out: HeLa-ACE2 Total Cells EC50; Table 2; total cell count in infected plates
[4] = tested on: HeLa-ACE2 cells; experiment: Uninfected host cell cytotoxicity counter screen; format: cell-based; details: read-out: Uninfected HeLa-ACE2 CC50, Table 2, 24 hours
Protocol: Uninfected host cell cytotoxicity counter screen: HeLa-ACE2 cells were maintained as described for the infection assay and seeded in the assay-ready plates at 400 cells/well. Plates were incubated for 24 hours at 37° C. 5% CO2. To assess cell viability, the Image-iT DEAD green reagent was used according to manufacturer instructions. Cells were fixed with 4% paraformaldehyde, and counterstained with DAPI. Fixed cells are imaged as described above.
Viral replication data analysis: Data from the primary screen and the host cell cytotoxicity screen are normalized to neutral (DMSO) […] inhibitor controls (2.5 μM Remdesivir for antiviral effect and 10 μM puromycin for infected host cell toxicity). For the uninfected host cell cytotoxicity counter-screen 40 μM puromycin is used as the positive control. Concentration response experiments will be tested in triplicate.

[5] = tested on: CoV-2 in Vero cells; experiment: CoV-2 Vero antiviral assay; format: cell-based, SARS-CoV-2; details: Table 2
[6] = Table 2, SARS-CoV-2 infected HeLa-ACE2 cells

| SMILES | pIC50 ([1]; Table 2) | pEC50 [2, 6] | pEC50 [3] | CC50 [4] [nM] | CoV-2 Vero EC50/100 [5] [µg/mL] | pIC50 ([1]; Table 3, select example compounds against mpro) | pEC50 ([2]; Table 3) |
| --- | --- | --- | --- | --- | --- | --- | --- |
| Cc1cncc(C(=O)N2CC3CCC(C2)N3C2c3ccccc3CS(=O)(=O)c3ccccc32)c1 (centres unmarked) | 6.60 | 5.71 | 5.16 | > 39800 |  |  |  |
| Cc1cncc(C(=O)N2CCN(C3c4ccccc4CSc4ccccc43)CC2)c1 (centres unmarked) | 7.18 | 6.68 | < 5.02 | 24700 | 2.5 |  |  |
| Cc1cncc(C(=O)N2CC3CCC(C2)N3C(c2cccc(F)c2)c2ccccc2S(C)(=O)=O)c1 (centres unmarked) | 7.31 | 7.21 | 6.95 | > 39800 | 2.5 |  |  |
| CC(=O)Nc1cncc(C(=O)N2CCN(C3c4ccccc4CS(=O)(=O)c4ccccc43)CC2)c1 (centres unmarked) | 6.52 | 5.81 | 5.95 | > 39800 |  |  |  |
| Cc1cncc(C(=O)N2CCN(C(c3ccccc3)c3ccccc3S(C)(=O)=O)CC2)c1 (centres unmarked) [NZ-807, (5-methyl-3-pyridyl)-[4-[(2-methylsulfonylphenyl)-phenyl-methyl]piperazin-1-yl]methanone] | 7.00 | 6.69 | 5.31 | > 39800 |  |  |  |
| Cc1cncc(C(=O)N2CCN(C3c4ccccc4CS(=O)(=O)c4ccccc43)CC2)c1 (centres unmarked) | 7.32 | 7.10 | 6.87 | > 39800 | 5 | 7.32 | 7.10 |
